A mixed list of measured activities; the numbers were collected in NIAID ChemDB.

Common to all: cytotoxicity tests; endpoint: CC50

An empty or dashed field is not shown. CCn is the concentration with n% toxicity to the cells. Conditions beyond the fields shown may differ between rows.

structure,cells,method,result
CCn1c(-c2ccc(OC)c(C)c2)cc(=O)c2cc(C(C)C)ccc21,HELA-OHIO,MTT,>4 µg/mL
CCC1(Cc2ccccc2)OS(=O)(=O)C=C1OCCCc1ccccc1,HEL fibroblasts,-,133 µM
CCOC(=O)C1=C(CN2CC(F)(F)[C@@H]3[C@H]2CON3[C@@H](C)[C@@H](O)C(C)(C)C(=O)O)NC(c2nccs2)=N[C@H]1c1cccc(F)c1C,HepG2.2.15,WST / absorbance,>6.25 µM
NC(=S)Nc1cccc(OCCCCCNc2ccccc2-c2ccco2)c1,Ava5-EG(delta4AB)SEAP,MTS,>1 µM
CCn1c2c(c(=O)c3cc(C(C)C)ccc31)Cc1c(C)csc1-2,HELA-OHIO,MTT,>5 µg/mL
CCOC(=O)C1=C(CN2CC(F)(F)[C@H]3[C@@H]2CCN3C[C@](C)(F)C(=O)O)NC(c2nccs2)=N[C@H]1c1cccc(F)c1C,HepG2.2.15,WST / absorbance,49.4 µM
C1CN(CC2CO2)CC[N+]2(C1)CC[N+]1(CCCN(CC3CO3)CC1)CC2,GMK,-,826.9 µg/mL
NC(=S)Nc1cccc(OCCCCCOc2ccc(-c3ccccc3)cc2)c1,Ava5-EG(delta4AB)SEAP,MTS,>1 µM
CCn1c2c(c(=O)c3cc(C(C)C)ccc31)Cc1ccsc1-2,HELA-OHIO,MTT,>10 µg/mL
CCC1(Cc2ccccc2)OS(=O)(=O)C=C1OC(=O)c1ccccc1,HEL fibroblasts,-,>200 µM
Cc1cn([C@H]2C[C@H](F)C(COC(=O)CCC(=O)OC[C@H]3O[C@@H](O)[C@H](OS(=O)(=O)[O-])[C@H](OS(=O)(=O)[O-])[C@@H]3O[C@@H]3CO[C@@H](O[C@@H]4O[C@H](CO)[C@@H](O[C@@H]5O[C@H](COS(=O)(=O)[O-])C[C@H](O)[C@H]5OS(=O)(=O)[O-])[C@H](O)[C@H]4O)[C@H](O)[C@H]3O)O2)c(=O)[nH]c1=O,P4R5,MTT,>100 µg/mL
Oc1c(N=NC(=S)Nc2ccccc2)c2ccccc2n1Cc1ccccc1,RD,-,>25 µM
COC(=O)N[C@H](C(=O)N[C@H](CCC[C@@H](CO)N(CCC(C)C)S(=O)(=O)c1ccc(CO)cc1)C(F)(F)C(F)(F)F)C(c1ccccc1)c1ccccc1,T lymphoid cells,microscopy,>10 µM
COC(=O)C1=C(CN2CC(F)(F)[C@@H]3[C@H]2CON3CC[C@@](C)(O)C(=O)O)NC(c2nccs2)=N[C@H]1c1ccc(F)c(F)c1C,HepG2.2.15,WST / absorbance,>100 µM
O=c1[nH]c(=O)n([C@@H]2O[C@H](CO)[C@@H](O)[C@@H]2O)cc1/C=C/Br,P3HR-1,cell count,>500 µM
COC(=O)N[C@H](C(=O)N[C@@H](C)CCC[C@@H](CO)N(CCCF)S(=O)(=O)c1ccc(N)cc1)C(c1ccccc1)c1ccccc1,T lymphoid cells,microscopy,>10 µM
NC(=S)Nc1cccc(NCCCc2ccccc2)c1,Ava5-EG(delta4AB)SEAP,MTS,>1 µM
O=[N+]([O-])c1c(N2CC[N+]3(CC2)CC[N+]2(CCNCC2)CC3)ncnc1N1CC[N+]2(CC1)CC[N+]1(CCN(c3ncnc(N4CC[N+]5(CC4)CC[N+]4(CCNCC4)CC5)c3[N+](=O)[O-])CC1)CC2,K562,-,>146.1 µg/mL
CCn1c(-c2cccc(C)c2)c(C)c(=O)c2c(Cl)c(OCC(C)C)ccc21,HeLa S3,MTT,>2.5 µg/mL
CN(C)C(=S)N=Nc1c(O)[nH]c2ccccc12,hRD,-,>25 µM
COC(=O)N[C@H](C(=O)N[C@H](CCC[C@@H](CO)N(CCC(C)C)S(=O)(=O)c1ccc(N)cc1)C1CC1)C(c1ccc(F)cc1)c1ccc(F)cc1,T lymphoid cells,microscopy,>10 µM
COCCCNC(=S)Nc1ccc2c(c1)Cc1cc(Br)ccc1-2,Ava5-EG(delta4AB)SEAP,MTS,>1 µM
CCn1c(-c2ccccc2)c(C)c(=O)c2cc(-c3ccccc3)ccc21,HELA-OHIO,MTT,>2.5 µg/mL
CCC1(Cc2ccccc2)OS(=O)(=O)C=C1OC,HEL fibroblasts,-,>200 µM
CCOC(=O)C1=C(CN2CC(F)(F)[C@H]3[C@@H]2CCN3C[C@@H](O)C(C)(C)C(=O)O)NC(c2nccs2)=N[C@@H]1c1cccc(F)c1F,HepG2.2.15,WST / absorbance,>25 µM
CCC1(Cc2ccccc2)OS(=O)(=O)C=C1OCc1cccc(Cl)c1,HEL fibroblasts,-,50 µM
CCN(CC)C(=O)N1CCN(c2ncnc(N3CC[N+]4(CC3)CC[N+]3(CCN(c5ncnc(N6CCN(C(=O)N(CC)CC)CC6)c5[N+](=O)[O-])CC3)CC4)c2[N+](=O)[O-])CC1,L929,-,>203.7 µg/mL
CCc1cn([C@H]2C[C@H](O)[C@@H](CO)O2)c(=O)[nH]c1=O,OMK,cell count,>700 µM
S=C(Nc1ccccc1)Nc1ccc2c(c1)Cc1cc(Br)ccc1-2,Ava5-EG(delta4AB)SEAP,MTS,>1 µM
O=c1[nH]c(=O)n([C@H]2C[C@H](O)[C@@H](CO)O2)cc1-c1ccc(Br)s1,NIH 3T3,cell count,151 µM
COC(=O)N[C@H](C(=O)N[C@H](CCC[C@@H](CO)N(CCC(C)C)S(=O)(=O)c1ccc(N)cc1)C(C)C)C(c1ccccc1)c1ccccc1,T lymphoid cells,microscopy,>10 µM
Cc1cccc(NC(=S)N=Nc2c(O)[nH]c3ccccc23)c1,hRD,-,>25 µM
Nc1nc2c(sc(=O)n2C/C=C\CO)c(=O)[nH]1,HFF (static),-,>100 µM
CCOC(=O)C1=C(CN2CC(F)(F)[C@@H]3[C@H]2CON3C[C@H](OC)C(C)(C)C(=O)O)NC(c2nccs2)=N[C@@H]1c1ccc(F)c(F)c1C,HepG2.2.15,WST / absorbance,30.6 µM
COC(=O)N[C@H](C(=O)N[C@@H](C)CCC[C@@H](CO)N(C)S(=O)(=O)c1ccc(N)cc1)C(c1ccccc1)c1ccccc1,T lymphoid cells,microscopy,>10 µM
COC(=O)C1=C(CN2CC(F)(F)[C@H]3[C@@H]2CCN3CC[C@](C)(O)C(=O)O)NC(c2nccs2)=N[C@H]1c1ccc(F)c(F)c1Cl,HepG2.2.15,WST / absorbance,>50 µM
CCn1c(-c2ccccc2)c(C)c(=O)c2cc(N3CCOCC3)ccc21,HeLa S3,MTT,>50 µg/mL
Cc1ccc(NC(=O)N=Nc2c(O)[nH]c3ccccc23)cc1,hRD,-,>25 µM
NC1=NC2C(C=CN2CC(CO)CCO)C(=O)N1,BCBL-1,cell count,>200 µM
Cc1cc2c(cc1OCC(C)C)c(=O)c(C)c(-c1ccccc1)n2C,HeLa S3,MTT,>5 µg/mL
COC(=O)N[C@H](C(=O)N[C@H](CCC[C@@H](CO)N(CCC(C)C)S(=O)(=O)c1ccc(Cl)cc1)C1CC1)C(c1ccccc1)c1ccccc1,T lymphoid cells,microscopy,>10 µM
Nc1c(N2CC[N+]3(CC2)CC[N+]2(CCN(c4nc[nH]c(=O)c4N)CC2)CC3)nc[nH]c1=O,K562,-,>82.4 µg/mL
Cc1cc(Cl)c(OCCCCCOc2cccc(NC(N)=S)c2)c(Cl)c1,Ava5-EG(delta4AB)SEAP,MTS,>1 µM
Nc1nc(=O)n([C@@H]2O[C@H](CO)[C@@H](O)[C@@H]2F)cc1I,OMK,cell count,≤49 µM
Cc1c(-c2ccccc2)n(C)c2cc(C(C)C)c(OC(C)C)cc2c1=O,HELA-OHIO,MTT,4.9 µg/mL
COC(=O)N[C@H](C(=O)N[C@@H](C)CCC[C@@H](CO)N(CCCF)S(=O)(=O)c1ccc(CO)cc1)C(c1ccccc1)c1ccccc1,T lymphoid cells,microscopy,>10 µM

Again, the opening 7 rows:

structure	cells	method	result
CCn1c(-c2ccc(OC)c(C)c2)cc(=O)c2cc(C(C)C)ccc21	HELA-OHIO	MTT	>4 µg/mL
CCC1(Cc2ccccc2)OS(=O)(=O)C=C1OCCCc1ccccc1	HEL fibroblasts	-	133 µM
CCOC(=O)C1=C(CN2CC(F)(F)[C@@H]3[C@H]2CON3[C@@H](C)[C@@H](O)C(C)(C)C(=O)O)NC(c2nccs2)=N[C@H]1c1cccc(F)c1C	HepG2.2.15	WST / absorbance	>6.25 µM
NC(=S)Nc1cccc(OCCCCCNc2ccccc2-c2ccco2)c1	Ava5-EG(delta4AB)SEAP	MTS	>1 µM
CCn1c2c(c(=O)c3cc(C(C)C)ccc31)Cc1c(C)csc1-2	HELA-OHIO	MTT	>5 µg/mL
CCOC(=O)C1=C(CN2CC(F)(F)[C@H]3[C@@H]2CCN3C[C@](C)(F)C(=O)O)NC(c2nccs2)=N[C@H]1c1cccc(F)c1C	HepG2.2.15	WST / absorbance	49.4 µM
C1CN(CC2CO2)CC[N+]2(C1)CC[N+]1(CCCN(CC3CO3)CC1)CC2	GMK	-	826.9 µg/mL